# According to ChEMBL document CHEMBL5725581, “Compounds and compositions for treating HIV with derivatives of Betulin” (2018):
# Assay: MT4 Cell Antiviral Assay: Antiviral HIV activity and compound-induced cytotoxicity were measured in parallel by means of a propidium iodide based procedure in the human T-cell lymphotropic virus transformed cell line MT4. Aliquots of the test compounds were serially diluted in medium (RPMI 1640, 10% fetal calf serum (FCS), and gentamycin) in 96-well plates (Costar 3598) using a Cetus Pro/Pette. …
Structure (SMILES),EC50,"EC50 (MT4, 10 min)"
CC(C)C1=C2[C@H]3CC[C@@H]4[C@@]5(C)CC[C@H](OC(=O)CC(C)(C)C(=O)O)C(C)(C)[C@@H]5CC[C@@]4(C)[C@]3(C)CC[C@@]2([C@@H](O)CN(CCN(C)C)Cc2cccc(Cl)c2F)CC1=O,3.4 nM,–
CC(C)C1=C2[C@H]3CC[C@@H]4[C@@]5(C)CC[C@H](OC(=O)CC(C)(C)C(=O)O)C(C)(C)[C@@H]5CC[C@@]4(C)[C@]3(C)CC[C@@]2([C@H](O)CN(CCN(C)C)Cc2cccc(Cl)c2F)CC1=O,–,4.2 nM
